## Percent effect of library compounds

Values are the deposited “Percent Effect”, in %. How 0% and 100% were set is not recorded. Most values in the screen are low, and negative values occur. The entries come from a sample that favours strong results. A dash means the value is not listed here; it may have been measured.

Mtb glucose medium: 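Growth of Mycobacterium tuberculosis over 3 days (7H9 medium with glucose and tyloxapol); the read-out is not stated. Compounds at 500 µM. The record gives no direction; compounds that gave an IC50 in retests scored well above the rest, so higher reads as more growth inhibition. About 18,000 compounds were tested under these conditions; 7.9% (about 1,400) showed 50% or more at least once.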
Mtb cholesterol medium: 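Growth of Mycobacterium tuberculosis over 4 days (cholesterol / DPPC medium with tyloxapol); the read-out is not stated. Compounds at 500 µM. Higher reads as more growth inhibition (inferred: compounds with an IC50 in retests scored well above the rest). Of about 18,000 compounds tested this way, about 900 (5%) reached 50% or more in at least one test.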

| # | SMILES | Mtb glucose medium | Mtb cholesterol medium |
|---|---|---|---|
| 1 | `C[C@@H](C#N)NC(=O)OC(C)(C)C` | - | 9.344 |
| 2 | `CNC(=O)CN1CCC(NC(=O)Nc2cn[nH]c2)CC1` | -4.956 | - |
| 3 | `CCNC(=O)c1ccc(OCCOCC)cc1` | 37.56 | - |
| 4 | `CN1CCC(N(C)C(=O)c2ccc(C#N)cc2)CC1` | - | -4.269 |
| 5 | `Cc1ccnc(NCCNC(=O)c2cc(C)n[nH]2)c1` | - | 9.313 |
| 6 | `CC1CN(Cc2ccccc2)CC1=O` (stereo not shown) | - | 27.38 |
| 7 | `COc1ccc2c(c1)OCCN(C(=O)C(C)OC)C2` (stereo not shown) | - | 6.635 |
| 8 | `Cn1cc(CN(C(=O)c2ccc(N)nc2)C2CC2)cn1` | -3.426 | - |
| 9 | `COc1ccc(Cl)c(S(=O)(=O)NC2CNC2)c1` | 10.44 | - |
| 10 | `Cc1nc(O)cc(CNC(=O)c2ncc(F)cc2F)n1` | -0.7563 | - |
| 11 | `COc1cccc(CNCC2(C)COC2)n1` | 33.83 | - |
| 12 | `O=S1(=O)CC[C@H]2CNC[C@H]21` | 0.9147 | - |
| 13 | `CC(C)n1[nH]c(-c2ccccc2)cc1=N` | - | -7.843 |
| 14 | `Cc1ccc(S(=O)(=O)Nc2ccncc2)cc1C` | 4.802 | - |
| 15 | `FC(F)Oc1ccc(C2CNCCO2)cc1` (stereo not shown) | 39.84 | 22.33 |
| 16 | `Cc1ccc2c(c1)nc(CN)n2C` | 66.94 | 106.3 |
| 17 | `Cc1cccc(C)c1NC(=O)Cn1cnc(C#N)n1` | -15.06 | -25.55 |
| 18 | `O=C(Cc1c[nH]c2ccccc12)N1CCCC(CO)C1` (stereo not shown) | - | -4.952 |
| 19 | `O=C1CC(O)C(=O)N1C1CCCCC1` (stereo not shown) | - | -1.23 |
| 20 | `CC(=O)Nc1cccc(OCCNc2ccccn2)c1` | 45.08 | - |
| 21 | `CN1CCN(CC2CCNCC2)CC1` | - | -18.96 |
| 22 | `O=C(CCn1cc(Br)cn1)NCc1cccs1` | 63.75 | 61.26 |
| 23 | `c1snnc1CN1CCC(OCC2CCOC2)CC1` (stereo not shown) | -9.996 | - |
| 24 | `COc1ccc(C)cc1C(C)O` (stereo not shown) | 4.602 | - |
| 25 | `C=C(C)CN(C)CC1CCN(CCO)CC1` | -6.789 | - |
| 26 | `Cc1ccc(OC2CN(C(=O)[C@H](N)C(C)C)C2)cc1` | 54.26 | 45.67 |
| 27 | `O=C(CNC(=O)NC1CCCC1)Nc1ccccc1` | 7.99 | - |
| 28 | `CSCCOC(=O)c1ccn(C(C)C)n1` | 77.38 | 56.06 |
| 29 | `CN(CCN)CC1CCCOC1` (stereo not shown) | 4.23 | - |
| 30 | `NCc1ccc2c(c1)OCCO2` | - | -6.368 |
| 31 | `O=C(NCCCN1CCOCC1)NCc1ccsc1` | 12.22 | - |
| 32 | `CCCNC(=O)c1cccc(NCCCO)c1` | 18.04 | - |
| 33 | `CN(C)C1(CNC(=O)Cc2cccnc2)CCOCC1` | - | -6.103 |
| 34 | `Nc1c[nH]nc1-c1ccccn1` | 16.81 | 22.54 |
| 35 | `O=C1NC2(CCCCC2)C(=O)Nc2ccccc21` | 4.492 | - |
| 36 | `COc1ccc(C(=O)C2CCNCC2)cc1OC` | 13.06 | - |
| 37 | `Cc1ccc(C(=O)N2CCOCC2)cc1NS(C)(=O)=O` | 9.759 | - |
| 38 | `CC(=O)COC(=O)CC(NC(N)=O)c1ccc(Cl)cc1` (stereo not shown) | -0.306 | - |
| 39 | `Cc1cccc(CN(C)CC(=O)N(C)C)c1` | - | 3.805 |
| 40 | `CC1(CO)CCCN1Cc1ccccc1` (stereo not shown) | 6.05 | - |
| 41 | `CN(C)C(=O)COC(=O)c1ccc2ncsc2c1` | 49.82 | - |
| 42 | `COC(=O)CS(=O)(=O)c1ccc(C)c(Cl)c1` | 80.75 | 118.5 |
| 43 | `Cn1nccc1CC(=O)OCCN1CCCCC1=O` | -15.59 | - |
| 44 | `CCN(C(=O)NC(C)C)C(C)CS(=O)(=O)CC` (stereo not shown) | -4.29 | - |
| 45 | `CCOc1ccc(CNS(=O)(=O)N(C)C)cc1C` | 62.75 | 54.97 |
| 46 | `CC(=O)N1CCN(c2ccc(CO)cc2)CC1` | -8.077 | - |
| 47 | `C1=C(CCNc2ncccn2)CCOC1` | -1.316 | - |
| 48 | `CCn1cc(S(=O)(=O)N2CC[S+]([O-])C(C)(C)C2)cn1` (stereo not shown) | -7.593 | - |
| 49 | `CC(C)C(=O)N1CCCC(c2nccn2CC(N)=O)C1` (stereo not shown) | -2.696 | - |
| 50 | `O=C(COC(=O)CN1CCCC1=O)NCc1cccs1` | -7.538 | - |
| 51 | `N#Cc1cccc(S(=O)(=O)N2CC(O)(C3CC3)C2)c1` | - | 9.015 |
| 52 | `CCCC(=O)Nc1ccc(N2CCN(C)CC2)cc1` | - | -6.179 |
| 53 | `O=C(NC1CNC1)C1CCC1` | -2.356 | - |
| 54 | `CCCn1c(SCC(N)=O)nnc1C1CC1` | 1.877 | - |
| 55 | `OCCCN1CCC(=Cc2ccccc2)CC1` | 74.76 | 73.75 |
| 56 | `CC(C)N(C)S(=O)(=O)NCCc1cccs1` | 56.77 | 46.74 |
| 57 | `CC(=O)c1cc(CN2Cc3cnn(CCO)c3C2)cs1` | -6.77 | - |
| 58 | `CCCN(CCC)S(=O)(=O)N1CCNCC1` | 14 | 0.5007 |
| 59 | `CC(C(=O)Nc1ccc(S(N)(=O)=O)cc1)N1CCCC1` (stereo not shown) | 12.19 | - |
| 60 | `Cc1cc(Br)oc1C(=O)N1CCCN(C)CC1` | 50.75 | 36.42 |
| 61 | `COc1cc(CN)cc(Cl)c1OCC(N)=O` | 13.59 | -4.914 |
| 62 | `CCOC(=O)CC1CCN(C(=O)C2CCNCC2)CC1` | -5.677 | - |
| 63 | `O=C(NCC(=O)N1CCCC1)c1csc2ccccc12` | 97.52 | - |
| 64 | `CCCc1nc(C(=O)N2CC(c3ccncc3)C2)cs1` | 75.62 | 65.14 |
| 65 | `N#Cc1cc(F)ccc1N1CCNCC1` | 23.47 | - |
| 66 | `CC(=O)c1c[nH]c(C(=O)NC2CCN(C(C)=O)CC2)c1` | - | -10.4 |
| 67 | `CC(C)(C)CC(CO)NC(=O)c1ccon1` (stereo not shown) | 13.47 | - |
| 68 | `CNC(=O)C(N)C(C)C` (stereo not shown) | -2.132 | - |
| 69 | `CCOc1ccnc(NCCc2nncn2CC)n1` | 6.35 | - |
| 70 | `Cc1cc(NC(=O)CCN(C)C(C)CO)no1` (stereo not shown) | - | 8.564 |
| 71 | `CCn1nnc2cc(C(=O)NCCCC#N)ccc21` | 8.233 | - |
| 72 | `CC/C(C)=C/CCN1CCC2(CCCNC2=O)C1` (stereo not shown) | - | 5.783 |
| 73 | `CCN1CCC(NC(=O)Nc2ccccc2)CC1` | -22.78 | - |
| 74 | `CNS(=O)(=O)c1cccc(C(=O)Nc2cccnc2)c1` | 2.763 | - |
| 75 | `CCC(OC)C(=O)NC1CCN(C2CC2)CC1` (stereo not shown) | - | -16.2 |
| 76 | `Cc1c[nH]c(C(=O)N2CCCN(CC(C)C)CC2)n1` | - | 10.52 |
| 77 | `CCCc1nc(CN2Cc3ncccc3C2=O)cs1` | 81.33 | 40.09 |
| 78 | `Cc1cncc(-c2cc(NCCO)nc(N)n2)c1` | -2.967 | 2.971 |
| 79 | `CCCN1CCN(C2CCNCC2)CC1` | - | -4.052 |
| 80 | `C1CC(COCCc2noc(C3CNC3)n2)CCO1` | 90.26 | 74.26 |
| 81 | `NC1CCNC2(CCC2)C1` (stereo not shown) | -1.53 | - |
| 82 | `CCCC(C)(C)NC(=O)c1ccc(S(C)(=O)=O)cc1` | - | 27.83 |
| 83 | `NC(=O)CN1CCOC(c2ccc(Cl)s2)C1` (stereo not shown) | 40.96 | - |
| 84 | `C=C(C)CNC(=O)Nc1cnn(CCN(C)C)c1` | -6.255 | - |

For reference, 6 entries once more:

| SMILES | Mtb glucose medium | Mtb cholesterol medium |
|---|---|---|
| `CC(=O)c1cc(CN2Cc3cnn(CCO)c3C2)cs1` | -6.77 | - |
| `CCOC(=O)CC1CCN(C(=O)C2CCNCC2)CC1` | -5.677 | - |
| `CCCc1nc(C(=O)N2CC(c3ccncc3)C2)cs1` | 75.62 | 65.14 |
| `CC1CN(Cc2ccccc2)CC1=O` (stereo not shown) | - | 27.38 |
| `C[C@@H](C#N)NC(=O)OC(C)(C)C` | - | 9.344 |
| `CC(=O)N1CCN(c2ccc(CO)cc2)CC1` | -8.077 | - |

Measurements from “University of Dundee, Small-Polar-MMV Screening Library” (2021), ChEMBL document CHEMBL3988442.